Compound potency records, mixed from different reports. Data source: NIAID ChemDB in PubChem.

All rows: whole-cell or culture tests; species: Candida albicans; method: agar diffusion / agar; read-out: zone

An empty or dashed field is not shown.

| SMILES | strain or isolate | dose | value |
|---|---|---|---|
| N#Cc1ccc(Nc2nc(Oc3cccc4cccnc34)nc(N3CCN(c4cccc(Cl)c4Cl)CC3)n2)cc1C(F)(F)F | MTCC 183 | 100 µg/disc | 25 mm |
| O=C(NN=C1CCCC1)c1snnc1C(F)(F)F | MTCC 227 | 150 µg/mL | 0 mm |
| Cc1ccc(N2C(=O)N(c3ccc(Oc4ccc(N5C(=N)C(=S)N(c6ccc(C)cc6)C5=O)cc4)cc3)C(=N)C2=S)cc1 |  | 100000 µM | 21 mm |
| CC(=NNC(=O)c1snnc1C(F)(F)F)c1ccccc1 | MTCC 227 | 150 µg/mL | 0 mm |
| N#Cc1ccc(Nc2nc(Oc3cccc4cccnc34)nc(N3CCOCC3)n2)cc1C(F)(F)F | MTCC 183 | 100 µg/disc | 23 mm |
| C#Cc1c(-c2ccc(C)cc2)c(C#N)c2nc(=O)c3c(-c4ccccc4)csc3n2c1N |  | 1000 µg/mL | 0 mm |
| CCN1CCN(c2nc(Nc3ccc(C#N)c(C(F)(F)F)c3)nc(Oc3cccc4cccnc34)n2)CC1 | MTCC 183 | 100 µg/disc | 21 mm |
| Cc1ccc(S(=O)(=O)CNc2oc3[nH]c(=O)[nH]c(=O)c3c2-c2ccc(Cl)cc2)cc1 |  | 100 µg/mL | 0 mm |
| N#Cc1c(-c2ccc(Cl)cc2)csc1N |  | 1000 µg/mL | 2.6 mm |
| N=C1C(=S)N(c2ccccc2)C(=O)N1c1ccc(Oc2ccc(N3C(=N)C(=S)N(c4ccccc4)C3=O)cc2)cc1 |  | 100000 µM | 27 mm |
| N#CCC(=O)Nc1scc(-c2ccccc2)c1C#N |  | 1000 µg/mL | 4 mm |
| CC(=NNC(=O)c1snnc1C(F)(F)F)c1ccc([N+](=O)[O-])cc1 | MTCC 227 | 150 µg/mL | 0 mm |
| CCOC(=O)c1sc(NC(=O)CC#N)c(C#N)c1C |  | 1000 µg/mL | 0 mm |
| Cc1ccc(-c2c(NCS(=O)(=O)c3ccc(C)cc3)oc3[nH]c(=O)[nH]c(=O)c23)cc1 |  | 50 µg/mL | 0 mm |
| O=C(NN=C1CCCCC1)c1snnc1C(F)(F)F | MTCC 227 | 100 µg/mL | 0 mm |
| CC(C)N1CCN(c2nc(Nc3ccc(C#N)c(C(F)(F)F)c3)nc(Oc3cccc4cccnc34)n2)CC1 | MTCC 183 | 100 µg/disc | 21 mm |
| CC1(CN2C(=N)C(=S)N(c3ccc(F)cc3)C2=O)CCC(N2C(=N)C(=S)N(c3ccc(F)cc3)C2=O)C(C)(C)C1 | IMRU-3669 | 5 mg/mL | 0 mm |
| CCOc1ccc(N2C(=O)N(CCCCCCN3C(=N)C(=S)N(c4ccc(OCC)cc4)C3=O)C(=N)C2=S)cc1 |  | 100000 µM | 21 mm |
| COc1ccc(N2C(=O)N(c3ccc(Cl)c(C(F)(F)F)c3)C(=N)C2=S)cc1 | IMRU-3669 | 5 mg/mL | 16.5 mm |
| N=C1C(=S)N(c2ccc(I)cc2)C(=O)N1CCCCCCN1C(=N)C(=S)N(c2ccc(I)cc2)C1=O |  | 100000 µM | 21 mm |
| N=C1C(=S)N(c2ccc(F)cc2)C(=O)N1c1cc(Cl)cc(Cl)c1 | IMRU-3669 | 5 mg/mL | 17 mm |
| O=C(NN=Cc1ccc(F)cc1)c1snnc1C(F)(F)F | MTCC 227 | 150 µg/mL | 0 mm |
| COC(=O)N[C@H](C(=O)NN(CC[C@]1(Cc2ccccc2)C(=O)N(C2c3ccccc3C[C@H]2O)C[C@@H]1O)Cc1ccc(Br)cc1)C(C)(C)C |  | 10 mg/mL | 12.8 mm |
| N=C1C(=S)N(c2ccc(I)cc2)C(=O)N1c1ccc(Cl)c(C(F)(F)F)c1 | IMRU-3669 | 5 mg/mL | 14.5 mm |
| COC(=O)N[C@H](C(=O)NN(CC[C@@]1(Cc2ccccc2)C(=O)N(C2c3ccccc3C[C@H]2O)C[C@@H]1O)Cc1ccc(Br)cc1)C(C)(C)C |  | 10 mg/mL | 12.8 mm |
| N=C1C(=S)N(c2ccc(I)cc2)C(=O)N1c1ccc(Oc2ccc(N3C(=N)C(=S)N(c4ccc(I)cc4)C3=O)cc2)cc1 |  | 100000 µM | 22 mm |
| COC(=O)N[C@H](C(=O)NN(CCC[C@@]1(Cc2ccccc2)C(=O)N(C2c3ccccc3C[C@H]2O)C[C@H]1O)Cc1ccc(-c2ccccn2)cc1)C(C)(C)C |  | 10 mg/mL | 12.8 mm |
| O=C(NN=Cc1cccs1)c1snnc1C(F)(F)F | MTCC 227 | 100 µg/mL | 0 mm |
| CCOc1ccc(N2C(=O)N(c3ccc(Cl)c(C(F)(F)F)c3)C(=N)C2=S)cc1 | IMRU-3669 | 5 mg/mL | 17 mm |
| COC(=O)N[C@H](C(=O)NN(CCC[C@@]1(Cc2ccccc2)C(=O)N(C2c3ccccc3C[C@H]2O)C[C@H]1O)Cc1ccc(-c2cccnc2)cc1)C(C)(C)C |  | 10 mg/mL | 12.8 mm |
| Cc1ccc(S(=O)(=O)CNc2oc3[nH]c(=O)[nH]c(=O)c3c2-c2ccc(F)cc2)cc1 |  | 50 µg/mL | 7 mm |
| O=C(NN=C1CCCCCC1)c1snnc1C(F)(F)F | MTCC 227 | 150 µg/mL | 0 mm |
| C=CC(C)(C)c1cc(C2CC(=O)c3c(cc(O)c(CC=C(C)C)c3O)O2)c(O)cc1O | hemoculture isolate | 2 mg/mL | 12 mm |
| CC(=O)N1CCN(c2ccc(OC[C@H]3CO[C@](Cn4ccnc4)(c4ccc(Cl)cc4Cl)O3)cc2)CC1 | C-2 | 20 mg/mL | 12 mm |
| Cc1ccc(N2C(=N)C(=S)N(c3ccc(F)cc3)C2=O)cc1 | IMRU-3669 | 5 mg/mL | 19.5 mm |
| O=C(NN=Cc1ccc(O)cc1)c1snnc1C(F)(F)F | MTCC 227 | 100 µg/mL | 0 mm |

A second listing of 5 rows from above:

SMILES | strain or isolate | dose | value
N#CCC(=O)Nc1scc(-c2ccccc2)c1C#N |  | 1000 µg/mL | 4 mm
O=C(NN=Cc1cccs1)c1snnc1C(F)(F)F | MTCC 227 | 100 µg/mL | 0 mm
CC(C)N1CCN(c2nc(Nc3ccc(C#N)c(C(F)(F)F)c3)nc(Oc3cccc4cccnc34)n2)CC1 | MTCC 183 | 100 µg/disc | 21 mm
N=C1C(=S)N(c2ccc(F)cc2)C(=O)N1c1cc(Cl)cc(Cl)c1 | IMRU-3669 | 5 mg/mL | 17 mm
N#Cc1ccc(Nc2nc(Oc3cccc4cccnc34)nc(N3CCOCC3)n2)cc1C(F)(F)F | MTCC 183 | 100 µg/disc | 23 mm

Zones are inhibition diameters on agar. Neighbouring rows are from separate reports.